According to paper PMC4439126, “The Myelin and Lymphocyte Protein MAL Is Required for Binding and Activity of Clostridium perfringens ε-Toxin” (PLoS Pathogens, 2015):

Molecular target: the molecule itself
Assay: Western blot of SDS-resistant oligomer

B1: Clostridium perfringens ε-toxin, activated (ETX) (natural protein)
chain: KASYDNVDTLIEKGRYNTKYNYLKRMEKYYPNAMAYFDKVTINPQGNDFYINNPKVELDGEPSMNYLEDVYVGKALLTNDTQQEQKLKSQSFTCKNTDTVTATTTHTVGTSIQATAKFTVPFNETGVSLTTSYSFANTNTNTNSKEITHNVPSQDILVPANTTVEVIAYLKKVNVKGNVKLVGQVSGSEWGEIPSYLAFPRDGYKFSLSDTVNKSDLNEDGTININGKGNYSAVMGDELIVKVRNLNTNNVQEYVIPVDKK
stoichiometry N: 7
